ChEMBL document CHEMBL3091419, “Cytidine derivatives as IspF inhibitors of Burkolderia pseudomallei” (Bioorg Med Chem Lett, 2013)
pKd: −log10 of the molar value.

Molecular target: T1, 2-C-methyl-D-erythritol 2,4-cyclodiphosphate synthase (Burkholderia pseudomallei (strain K96243), UniProt Q63T71)
T1 sequence (Q63T71 whole entry): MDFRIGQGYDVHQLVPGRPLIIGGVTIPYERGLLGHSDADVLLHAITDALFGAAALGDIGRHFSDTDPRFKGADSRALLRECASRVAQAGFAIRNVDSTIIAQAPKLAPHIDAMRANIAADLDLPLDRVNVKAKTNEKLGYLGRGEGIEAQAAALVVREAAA
Assay: Binding affinity to Burkolderia pseudomallei IspF by surface plasmon resonance method

Compound `Nc1ccn([C@@H]2O[C@H](COP(=O)(O)OP(=O)(O)O)[C@@H](O)[C@H]2O)c(=O)n1` has a pKd of 4.12.
